In PMC11729419, “Thiol-Reactive or Redox-Active: Revising a Repurposing Screen Led to a New Invalidation Pipeline and Identified a True Noncovalent Inhibitor Against Papain-like Protease from SARS-CoV-2” (ACS Pharmacology & Translational Science, 2024):
Like-named read-outs stand apart in the source and are kept apart here.

Target: SARS-CoV-2 PLpro-NAB (Severe acute respiratory syndrome coronavirus 2, UniProt P0DTD1)
Test: biochemical
Conditions: Table S1

C[C@H]1COC2=C1C(=O)C(=O)c1c2ccc2c1CCCC2(C)C [Cryptotanshinone]
IC50 (DTT buffer, read-out: HP PLpro-NAB SARS-CoV-2 IC50 [µM] triplicates DTT BUFFER): > 20 µM
IC50 (L-cysteine buffer, read-out: HP PLpro-NAB SARS-CoV-2 IC50 [µM] duplicates L-CYS BUFFER): > 20 µM
